Anti-infective test results gathered from many reports (values: NIAID ChemDB through PubChem).

Shared fields: growth or infection tests; agent: Human cytomegalovirus; read by: cytopathic effect; read-out: EC50

Conditions beyond the fields shown may differ between rows. a–b is a range or a potency band. ECn is the concentration giving n% inhibition of infection, replication or growth. An empty or dashed field is not shown.

smiles,cells,strain,value
COc1nc(N)nc2c1ncn2C=C1CC1CO,HFF,AD169,1.5 µM
Cc1ccn2c(CSCCc3ccccc3)c(-c3cccs3)nc2c1,HEL,DAVIS,1.6 µg/mL
COC(=O)C(C)NP(=O)(OC[C@@H]1C/C1=C\n1cc(C)c(=O)[nH]c1=O)Oc1ccccc1,HFF,AD169,243 µM
CC(C)(CO)C(=O)Nc1ccc(NS(=O)(=O)c2cccc3ccccc23)cc1,Human embryonic lung fibroblasts,DAVIS,0.66 µM
O=C(Nc1cccc(F)c1)Nc1cccc(C2=NNC(=O)C23CCCCC3)c1,NHDF,,1.9 µM
C[C@H](Cn1nnc2c(=O)[nH]c(N)nc21)OCP(=O)(O)O,HEL,DAVIS,>50 µg/mL
Nc1nc2c(ncn2COC(CO)OCP(=O)(O)O)c(=O)[nH]1,MRC-5,,0.9 µg/mL
CC(C)(C)[Si](C)(C)OC[C@H]1O[C@@H](n2ccc3nc(CN)cn3c2=O)[C@H](O[Si](C)(C)C(C)(C)C)[C@@H]1O[Si](C)(C)C(C)(C)C,HEL,DAVIS,8.9 µM
Cc1ccn2c(CSCc3ccccc3)c(-c3ccc4ccccc4c3)nc2c1,HEL,AD169,>0.5 µg/mL
Nc1cc(OCCOCP(=O)(O)O)nc(N)n1,HEL,AD169,>190 µM
Cn1cc(C(=O)NCc2ccc(Cl)cc2)c(=O)c2cc(CN3CCOCC3)ccc21,HFF,DAVIS,2.4 µM
OC[C@H]1O[C@@H](n2cnc3c(=S)nc[nH]c32)[C@H](O)[C@@H]1O,WI-38,,<320 µg/mL
O=C(Nc1cccc(-c2n[nH]c(=O)n2C2CCCCC2)c1)Nc1ccc(F)c(Cl)c1,NHDF,,0.29 µM
Cc1ccn2c(CSCc3ccccc3)c(-c3cccnc3)nc2c1,HEL,AD169,10 µg/mL
Cn1cnc([N+](=O)[O-])c1Sc1nc(N)nc2nc[nH]c12,WI-38,,<10 µg/mL
O=c1[nH]c(=O)n([C@H]2C[C@H](O)[C@@H](CO)O2)cc1I,HFF,,154 µM
CCc1cn([C@H]2C[C@H](O)[C@@H](CO)O2)c(=O)[nH]c1=O,,AD169,>390 µM
Nc1ncnc2ncn(/C=C3/C(F)C3(CO)CO)c12,HFF,TOWNE,>100 µM
COC(=O)[C@H](C)NP(=O)(OC[C@H]1C/C1=C/n1cnc2c(OC)nc(N)nc21)Oc1ccccc1,HFF,AD169,0.22 µM
CC(C)n1c(-c2cccc(NC(=O)Nc3cccc(Cl)c3)c2)n[nH]c1=O,NHDF,,0.19 µM
Cc1nc2ccccn2c1NC(=O)c1ccccc1,HEL,DAVIS,>50 µg/mL
CCOC(=O)CN1N=C(c2cccc(NC(=O)Nc3ccc(Cl)cc3C)c2)C(C)(C)C1=O,NHDF,,0.38 µM
CN(C)c1cccc2c(S(=O)(=O)Nc3ccc(NC(=O)C(C)(C)C(=O)O)cc3)cccc12,Human embryonic lung fibroblasts,DAVIS,47 µM
Nc1nc(N)c2nnn(C[C@@H](CO)OCP(=O)(O)O)c2n1,HEL,AD169,>100 µg/mL
CC(C)(CCl)C(=O)Nc1ccc(NS(=O)(=O)c2cccc3ccccc23)cc1,Human embryonic lung fibroblasts,DAVIS,0.087 µM
Cc1cc(Cl)ccc1NC(=O)Nc1cccc(C2=NNC(=O)C2(C)C)c1,NHDF,,0.5 µM
CO[C@H](CO)[C@@H](O)CCn1ccc(N)nc1=O,HEL,AD169,>400 µg/mL
Cc1ccn2c(CSCc3ccccc3)c(-c3ccccn3)nc2c1,HEL,DAVIS,0.95 µg/mL
CO[C@H](CO)[C@@H](O)CCn1cc(C)c(=O)[nH]c1=O,HEL,AD169,>400 µg/mL
COC(=O)C(C)NP(=O)(OC[C@@H]1C/C1=C/n1cc(C)c(=O)[nH]c1=O)Oc1ccccc1,HFF,AD169,>300 µM
COC(C)c1cn([C@H]2C[C@H](O)[C@@H](CO)O2)c(=O)[nH]c1=O,HFF,AD169,0.9 µM
Nc1nc2c(ncn2[C@H]2C=C[C@@H](CO)CC2)c(=O)[nH]1,VERO,,1–10 µM
Cc1ccn2c(CSCc3ccccc3)c(C3CC3C)nc2c1,HEL,DAVIS,5 µg/mL
CC(C)(CF)C(=O)Nc1cccc(NS(=O)(=O)c2ccc(-c3noc(-c4ccccc4)n3)cc2)c1,HELF,,0.04 µM
CO[C@H](CO)[C@@H](O)CCn1cnc2c(=O)[nH]c(N)nc21,HEL,AD169,>400 µg/mL
Nc1ccn(CCCC(O)CF)c(=O)n1,HEL,DAVIS,12 µg/mL
CC[C@]1(Cl)C(=O)NC(=O)N([C@H]2C[C@H](O)[C@@H](CO)O2)[C@@H]1OC,HFF,AD169,>50 µM
Cc1ccn2c(CSCc3ccccc3)cnc2c1,HEL,AD169,3.5 µg/mL
CNc1cccc2c(S(=O)(=O)Nc3ccc(NC(=O)C(C)(C)C(=O)O)cc3)cccc12,Human embryonic lung fibroblasts,DAVIS,125 µM
Cc1cc(Br)cn2c(CSCc3ccccc3)cnc12,HEL,AD169,>20 µg/mL
Nc1ncnc2c1ncn2[C@@H]1O[C@H](CO)[C@@H](O)[C@@H]1O,WI-38,,<32 µg/mL
Nc1ccn(C(CF)CCCO)c(=O)n1,HEL,AD169,>50 µg/mL
Nc1cc(OC[C@H](CO)OCP(=O)(O)O)nc(N)n1,HEL,DAVIS,120 µM
C=Cc1cn([C@H]2C[C@H](O)[C@@H](CO)O2)c(=O)[nH]c1=O,HFF,,78.8 µM
Nc1ncnc2c1ncn2[C@H]1C[C@H](O)[C@]2(CO)C[C@H]12,HFF,,3.1 µg/mL
CC(C)(C)c1nc2ccccn2c1NC(=S)Nc1ccccc1,HEL,AD169,>50 µg/mL
Nc1ncc2c(ncn2COC(CO)CO)n1,,DAVIS,0.02 µg/mL
CCc1cn([C@H]2C[C@H](O)[C@@H](CO)O2)c(=O)[nH]c1=O,HFF,AD169,>170 µM
Nc1nc2c(ncn2[C@@H]2C[C@H](CO)[C@H]2CO)c(=O)[nH]1,VERO,,1–10 µM
Nc1nc(Cl)c2ncn(/C=C3/C[C@H]3CO)c2n1,HFF,,5.6 µM
Nc1nc2c(ncn2COC(CO)CO)c(=O)[nH]1,VERO,,1–10 µM
N#CC1C(c2ccc(Cl)cc2)Nc2ccccc2S1(=O)=O,HEL,AD169,3.1 µg/mL
CC(=O)Oc1ccc([C@@H]2CC(=O)c3c(cc(OC(C)=O)c(-c4c(OC(C)=O)cc5c(c4OC(C)=O)C(=O)C[C@@H](c4ccc(OC(C)=O)cc4)O5)c3OC(C)=O)O2)cc1,HFF,,>4 µg/mL
Nc1ncnc2c1ncn2/C=C1/C[C@H]1CO,HFF,AD169,1.9 µM
COC(=O)C(C)NP(=O)(OC[C@@H]1C/C1=C/n1cc(N)c(=O)[nH]c1=O)Oc1ccccc1,HFF,AD169,29.8 µM
CC(=O)O[C@@H](CC/C(C)=C/[C@@H]1OCC(C)=C1CC[C@H](C)O)[C@@]1(C)CCC(=O)O1,HEL,,5 µg/mL
CC(C)(C(=O)O)C(=O)Nc1ccc(NS(=O)(=O)c2cccc3c(N)cccc23)cc1,Human embryonic lung fibroblasts,DAVIS,27.4 µM
CN(C)CC1CCC(C23CC4CC(CC(C4)C2)C3)[C@@H]1c1ccccc1,HEL,,>40 µg/mL
CCCCCCCC(=O)NCC#Cc1cn([C@H]2C[C@H](O)[C@@H](COP(=O)(N[C@@H](C)C(=O)OCc3ccccc3)Oc3ccccc3)O2)c(=O)[nH]c1=O,HEL,AD169,>100 µM
CN1C=CCC(C(=O)O[C@H]2C[C@H](n3cc(/C=C/I)c(=O)[nH]c3=O)O[C@@H]2CO)=C1,HFF,,>40 µM

The first 6 rows once more:

smiles,cells,strain,value
COc1nc(N)nc2c1ncn2C=C1CC1CO,HFF,AD169,1.5 µM
Cc1ccn2c(CSCCc3ccccc3)c(-c3cccs3)nc2c1,HEL,DAVIS,1.6 µg/mL
COC(=O)C(C)NP(=O)(OC[C@@H]1C/C1=C\n1cc(C)c(=O)[nH]c1=O)Oc1ccccc1,HFF,AD169,243 µM
CC(C)(CO)C(=O)Nc1ccc(NS(=O)(=O)c2cccc3ccccc23)cc1,Human embryonic lung fibroblasts,DAVIS,0.66 µM
O=C(Nc1cccc(F)c1)Nc1cccc(C2=NNC(=O)C23CCCCC3)c1,NHDF,,1.9 µM
C[C@H](Cn1nnc2c(=O)[nH]c(N)nc21)OCP(=O)(O)O,HEL,DAVIS,>50 µg/mL